These are literature values, as cited in PMC3739823, “Structural Guided Scaffold Phage Display Libraries as a Source of Bio-Therapeutics” (PLoS ONE, 2013).

Chains of the proteins cited; added tags and fusions are not shown. Residues count along the entry.
UniProt P06756, 31-1048, chain 1 of 2: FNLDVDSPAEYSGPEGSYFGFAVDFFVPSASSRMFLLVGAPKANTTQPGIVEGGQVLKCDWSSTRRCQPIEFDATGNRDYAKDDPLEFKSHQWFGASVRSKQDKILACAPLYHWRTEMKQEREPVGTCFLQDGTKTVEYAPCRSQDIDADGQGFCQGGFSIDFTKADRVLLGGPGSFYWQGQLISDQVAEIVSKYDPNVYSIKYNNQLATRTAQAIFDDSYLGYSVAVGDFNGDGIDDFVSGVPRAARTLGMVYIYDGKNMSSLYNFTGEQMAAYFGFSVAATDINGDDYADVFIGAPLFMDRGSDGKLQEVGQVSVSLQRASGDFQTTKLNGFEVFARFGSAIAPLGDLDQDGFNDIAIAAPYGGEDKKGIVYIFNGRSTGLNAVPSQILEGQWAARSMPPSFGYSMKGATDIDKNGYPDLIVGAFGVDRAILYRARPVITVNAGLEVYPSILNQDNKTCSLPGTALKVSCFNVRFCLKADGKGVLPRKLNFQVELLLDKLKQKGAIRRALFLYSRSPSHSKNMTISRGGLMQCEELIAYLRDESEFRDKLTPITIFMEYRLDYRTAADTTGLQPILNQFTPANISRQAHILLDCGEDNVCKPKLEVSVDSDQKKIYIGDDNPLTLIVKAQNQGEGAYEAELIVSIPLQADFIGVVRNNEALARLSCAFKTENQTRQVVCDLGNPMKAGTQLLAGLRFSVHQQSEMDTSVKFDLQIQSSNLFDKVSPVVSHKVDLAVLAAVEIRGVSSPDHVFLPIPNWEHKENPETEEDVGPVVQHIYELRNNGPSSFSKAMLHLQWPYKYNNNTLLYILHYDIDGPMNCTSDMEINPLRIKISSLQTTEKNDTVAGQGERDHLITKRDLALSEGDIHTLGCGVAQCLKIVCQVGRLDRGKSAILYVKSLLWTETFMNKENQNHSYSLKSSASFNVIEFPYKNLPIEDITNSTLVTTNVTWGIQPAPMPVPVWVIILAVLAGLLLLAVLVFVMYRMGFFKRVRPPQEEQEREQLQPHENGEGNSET

What is called Kd is the constant that tells how readily two partners part at equilibrium.

This series deals with integrin αvβ6 (Homo sapiens) (UniProt P06756). Conditions: cited from earlier work.

Turning to A20FMDV2, the dissociation constant (Kd) is 1.7 nM.
